Measured values from several laboratories, pooled; numbers as filed in NIAID ChemDB.

All rows: tests on isolated targets

a–b is a range or a potency band. Inhibition is in % at the dose shown (toxicity tests: loss of growth or viability). Neighbouring rows are from separate reports. ICn: concentration for n% inhibition. Blank or dashed fields: not listed here.

CC[C@@H](C=O)NC(=O)[C@@H]1C[C@@H](OCc2ccccc2)CN1C(=O)[C@@H](NC(=O)c1cccc2ccccc12)C(C)C ; agent: Hepatitis C virus ; measure: Ki ; target: NS3 protease ; value: 1–100 µM
CC[C@H](NC(=O)[C@@H](NC(=O)[C@@H](NC(=O)[C@H](CC(C)C)NC(=O)[C@@H](CCC(=O)O)NC(=O)[C@H](CC(=O)O)NC(C)=O)[C@@H](C)CC)C1CCCCC1)C(O)/C=C/CCCC(C)C ; agent: Hepatitis C virus ; tested at: 10 µM ; measure: inhibition ; target: HCV NS3 protease ; value: 64%
CC[C@@H](C=O)NC(=O)[C@@H]1C[C@@H](OC(=O)Nc2ccccc2C(C)C)CN1C(=O)[C@@H](NC(=O)[C@@H](NC(=O)c1cnccn1)C(C)C)C(C)C ; agent: Hepatitis C virus ; measure: Ki ; target: NS3 protease ; value: 1–100 µM
C=CC1CC1(NC(=O)[C@@H]1C[C@@H](OC(=O)Nc2cc(C)ccc2F)CN1C(=O)[C@@H](NC(=O)OC(C)(C)C)C(C)(C)C)C(=O)O ; strain: BMS/H77C/J416S ; agent: Hepatitis C virus ; measure: IC50 ; target: NS3/NS4A protease ; value: >10 µM
O=C(O)c1nc(-c2ccccc2NS(=O)(=O)c2ccccc2[N+](=O)[O-])[nH]c(=O)c1O ; agent: Hepatitis C virus ; measure: IC50 ; target: HCV polymerase ; value: <100 µM
CC[C@@H](C=O)NC(=O)[C@@H]1C[C@@H](OCc2ccccc2)CN1C(=O)[C@@H](NC(=O)[C@@H](NC(=O)OCc1ccccc1)C(C)C)C(C)C ; agent: Hepatitis C virus ; measure: Ki ; target: NS3 protease ; value: 1–100 µM
CC[C@H](NC(=O)[C@@H](NC(=O)[C@@H](NC(=O)[C@H](CC(C)C)NC(=O)[C@@H](CCC(=O)O)NC(=O)[C@H](CC(=O)O)NC(C)=O)[C@@H](C)CC)C1CCCCC1)C(=O)CCc1ccccc1 ; agent: Hepatitis C virus ; tested at: 1 µM ; measure: inhibition ; target: HCV NS3 protease ; value: 25%
CC[C@@H](C=O)NC(=O)[C@@H]1C[C@@H](OCc2ccccc2)CN1C(=O)[C@@H](NC(=O)[C@@H](NC(=O)Nc1cc(C(=O)O)cc(C(=O)O)c1)C(C)C)C(C)C ; agent: Hepatitis C virus ; measure: Ki ; target: NS3 protease ; value: 1–100 µM
C=CC1CC1(NC(=O)[C@@H]1C[C@@H](OC(=O)Nc2c(C)cccc2CC)CN1C(=O)[C@@H](NC(=O)OC(C)(C)C)C(C)(C)C)C(=O)NS(=O)(=O)C1CC1 ; strain: BMS/H77C/J416S ; agent: Hepatitis C virus ; measure: IC50 ; target: NS3/NS4A protease ; value: 1–10 µM
O=C(O)c1cnn2c(C3CCCCC3)c(-c3ccc4ncccc4c3)cnc12 ; agent: Hepatitis C virus ; measure: IC50 ; target: RNA-dependent RNA polymerase ; value: >10 µM
CC[C@H](NC(=O)[C@@H](NC(=O)[C@@H](NC(=O)[C@H](CC(C)C)NC(=O)[C@@H](CCC(=O)O)NC(=O)[C@H](CC(=O)O)NC(C)=O)[C@@H](C)CC)C1CCCCC1)C(=O)CCc1ccc(OC)cc1 ; agent: Hepatitis C virus ; tested at: 10 µM ; measure: inhibition ; target: HCV NS3 protease ; value: 81%
O=C(O)[C@@H](Cc1ccccc1)N(Cc1ccc(-c2ccccc2C(F)(F)F)o1)C(=O)c1cccc([N+](=O)[O-])c1 ; agent: Hepatitis C virus ; read by: HPLC ; measure: IC50 ; target: Nonstructural protein 3 NTPase/helicase ; value: <5 µM
O=C(Nc1ccccc1-c1nc(C(=O)O)c(O)c(=O)[nH]1)c1cc2ccccc2s1 ; agent: Hepatitis C virus ; measure: IC50 ; target: HCV polymerase ; value: <100 µM
O=c1c(O)c(-c2ccc(O)c(O)c2)oc2cc(O)c(O)c(O)c12 ; strain: genotype 1b ; agent: Hepatitis C virus ; read by: nucleotide incorporation ; measure: IC50 ; target: RdRp ; value: 4.3 µM
CC[C@H](NC(=O)[C@@H](NC(=O)[C@@H](NC(=O)[C@H](CC(C)C)NC(=O)[C@@H](CCC(=O)O)NC(=O)[C@H](CC(=O)O)NC(C)=O)[C@@H](C)CC)C1CCCCC1)C(=O)/C=C/c1nccs1 ; agent: Hepatitis C virus ; tested at: 10 µM ; measure: inhibition ; target: HCV NS3 protease ; value: 95%
C=CC1CC1(NC(=O)[C@@H]1C[C@@H](OC(=O)Nc2ccccc2SC)CN1C(=O)[C@@H](NC(=O)OC(C)(C)C)C(C)(C)C)C(=O)NS(=O)(=O)C1CC1 ; strain: BMS/H77C/J416S ; agent: Hepatitis C virus ; measure: IC50 ; target: NS3/NS4A protease ; value: <0.1 µM
O=C(O)c1nc(-c2ccccc2NS(=O)(=O)c2ccc(Cl)cc2)[nH]c(=O)c1O ; agent: Hepatitis C virus ; measure: IC50 ; target: HCV polymerase ; value: <100 µM
CC[C@@H](C=O)NC(=O)[C@H](CC(C)C)NC(=O)[C@@H](NC(=O)[C@@H](NC(=O)c1csc(-c2ccncc2)n1)C(C)C)C(C)C ; agent: Hepatitis C virus ; measure: Ki ; target: NS3 protease ; value: 1–100 µM
O=C(/C=C/c1ccc(O)c(O)c1)O[C@H]1[C@H](O)C[C@](O)(C(=O)O)C[C@H]1OC(=O)/C=C/c1ccc(O)c(O)c1 ; strain: HepG 2.2.15 ; agent: Hepatitis B virus ; tested at: 10 µg/mL ; read by: ELISA ; measure: inhibition ; target: HBeAg ; value: 9.92%
CC[C@@H](C=O)NC(=O)[C@H](CC(C)C)NC(=O)[C@@H](NC(=O)[C@@H](NC(=O)Cc1ccccn1)C(C)C)C(C)C ; agent: Hepatitis C virus ; measure: Ki ; target: NS3 protease ; value: 1–100 µM
C#CCN(C(=O)c1ccc(Cl)cc1Cl)[C@@H](Cc1ccccc1)C(=O)O ; agent: Hepatitis C virus ; measure: IC50 ; target: RNA-dependent RNA polymerase ; value: 5–20 µM
CC[C@H](NC(=O)[C@@H](NC(=O)[C@@H](NC(=O)[C@H](CC(C)C)NC(=O)[C@@H](CCC(=O)O)NC(=O)[C@H](CC(=O)O)NC(C)=O)[C@@H](C)CC)C1CCCCC1)C(=O)O ; agent: Hepatitis C virus ; tested at: 10 µM ; measure: inhibition ; target: HCV NS3 protease ; value: 60%
COC(=O)c1cc2nc(-c3ccc(OC)cc3)c(-c3ccc(OC)cc3)c(=O)n2[nH]1 ; agent: Hepatitis C virus ; measure: IC50 ; target: RNA-dependent RNA polymerase ; value: >10 µM
Nc1ccn([C@H]2CS[C@@H](COP(=O)(O)OP(=O)(O)OP(=O)(O)O)O2)c(=O)n1 ; strain: Polymerase mutant V553I ; agent: Hepatitis B virus ; measure: IC50 ; target: DNA polymerase ; value: 0.503 µM
O=C(O)c1nc(-c2cscc2NC(=O)C(O)c2ccccc2)[nH]c(=O)c1O ; agent: Hepatitis C virus ; measure: IC50 ; target: HCV polymerase ; value: <25 µM
CC[C@@H](C=O)NC(=O)[C@@H]1C[C@@H](OC(=O)Nc2cccc(C(C)=O)c2)CN1C(=O)[C@@H](NC(=O)[C@@H](NC(=O)c1cnccn1)C(C)C)C(C)C ; agent: Hepatitis C virus ; measure: Ki ; target: NS3 protease ; value: >100 µM
CCOC(=O)c1cccc(-c2ccc(CN(C(=O)c3ccc(Cl)cc3Cl)C(Cc3ccccc3)C(=O)O)s2)c1 ; agent: Hepatitis C virus ; measure: IC50 ; target: RNA-dependent RNA polymerase ; value: <5 µM
C=CC1CC1(NC(=O)[C@@H]1C[C@@H](OC(=O)Nc2cccc(Cl)c2Cl)CN1C(=O)[C@@H](NC(=O)OC(C)(C)C)C(C)(C)C)C(=O)NS(=O)(=O)C1CC1 ; strain: BMS/H77C/J416S ; agent: Hepatitis C virus ; measure: IC50 ; target: NS3/NS4A protease ; value: <0.1 µM
O=C(O)c1nc(-c2sccc2NC(=O)C(NCc2cccc3cccnc23)c2ccccc2)[nH]c(=O)c1O ; agent: Hepatitis C virus ; measure: IC50 ; target: HCV polymerase ; value: <25 µM
CC[C@H](NC(=O)[C@@H](NC(=O)[C@@H](NC(=O)[C@H](CC(C)C)NC(=O)[C@@H](CCC(=O)O)NC(=O)[C@H](CC(=O)O)NC(C)=O)[C@@H](C)CC)C1CCCCC1)C(=O)CCCCCC(C)C ; agent: Hepatitis C virus ; tested at: 1 µM ; measure: inhibition ; target: HCV NS3 protease ; value: 31%
C=CC1CC1(NC(=O)[C@@H]1C[C@@H](OC(=O)N2CCCCC2)CN1C(=O)[C@@H](NC(=O)OC(C)(C)C)C(C)(C)C)C(=O)NS(=O)(=O)C1CC1 ; strain: BMS/H77C/J416S ; agent: Hepatitis C virus ; measure: IC50 ; target: NS3/NS4A protease ; value: 0.1–1 µM
CCOC(=O)c1cnn2c(C)cc(-c3ccccc3)nc12 ; agent: Hepatitis C virus ; measure: IC50 ; target: RNA-dependent RNA polymerase ; value: >10 µM
CC[C@@H](C=O)NC(=O)[C@@H]1C[C@@H](OCc2ccccc2)CN1C(=O)[C@@H](NC(=O)c1cnn(-c2ccccc2)c1C)C(C)C ; agent: Hepatitis C virus ; measure: Ki ; target: NS3 protease ; value: >100 µM
O=C(O)C(Cc1ccccc1)N(Cc1sc(Br)cc1Br)C(=O)c1ccc(Cl)cc1I ; agent: Hepatitis C virus ; measure: IC50 ; target: RNA-dependent RNA polymerase ; value: <5 µM
C=CC1CC1(NC(=O)[C@@H]1C[C@@H](OC(=O)Nc2cccc(C(=O)OCC)c2)CN1C(=O)[C@@H](NC(=O)OC(C)(C)C)C(C)(C)C)C(=O)NS(=O)(=O)C1CC1 ; strain: BMS/H77C/J416S ; agent: Hepatitis C virus ; measure: IC50 ; target: NS3/NS4A protease ; value: 0.1–1 µM
O=C(O)c1cnn2c(-c3cccc(-c4ccc(Cl)s4)c3)ccnc12 ; agent: Hepatitis C virus ; measure: IC50 ; target: RNA-dependent RNA polymerase ; value: >10 µM
O=C(NCc1ccc(C(F)(F)F)cc1)Nc1cscc1-c1nc(C(=O)O)c(O)c(=O)[nH]1 ; agent: Hepatitis C virus ; measure: IC50 ; target: HCV polymerase ; value: <25 µM
CC[C@H](NC(=O)[C@@H](NC(=O)[C@@H](NC(=O)[C@H](CC(C)C)NC(=O)[C@@H](CCC(=O)O)NC(=O)[C@H](CC(=O)O)NC(C)=O)[C@@H](C)CC)C1CCCCC1)C(=O)/C=C/c1ccccc1 ; agent: Hepatitis C virus ; tested at: 1 µM ; measure: inhibition ; target: HCV NS3 protease ; value: 58%
C=CC1CC1(NC(=O)[C@@H]1C[C@@H](OC(=O)Nc2cc(C(=O)OCC)ccc2N2CCCCC2)CN1C(=O)[C@@H](NC(=O)OC(C)(C)C)C(C)(C)C)C(=O)NS(=O)(=O)C1CC1 ; strain: BMS/H77C/J416S ; agent: Hepatitis C virus ; measure: IC50 ; target: NS3/NS4A protease ; value: <0.1 µM
O=C(O)[C@H](Cc1ccccc1)N(Cc1ccc(-c2nccs2)o1)C(=O)c1ccc(Cl)cc1Cl ; agent: Hepatitis C virus ; measure: IC50 ; target: RNA-dependent RNA polymerase ; value: <5 µM
O=C(NCCc1ccccc1)Nc1ccccc1-c1nc(C(=O)O)c(O)c(=O)[nH]1 ; agent: Hepatitis C virus ; measure: IC50 ; target: HCV polymerase ; value: <100 µM
C=CC1CC1(NC(=O)[C@@H]1C[C@@H](OC(=O)Nc2ccccc2-c2ccccc2)CN1C(=O)[C@@H](NC(=O)OC(C)(C)C)C(C)(C)C)C(=O)NS(=O)(=O)C1CC1 ; strain: BMS/H77C/J416S ; agent: Hepatitis C virus ; measure: IC50 ; target: NS3/NS4A protease ; value: <0.1 µM
O=C(O)[C@H](Cc1ccccc1)N(Cc1cc(-c2ccc(Cl)cc2Cl)cs1)C(=O)c1ccc(Cl)cc1Cl ; agent: Hepatitis C virus ; measure: IC50 ; target: RNA-dependent RNA polymerase ; value: <5 µM
O=C(NCCO)c1cc2nc(-c3ccc(Cl)cc3)cc(-c3ccc(Oc4ccccc4)cc3)n2n1 ; agent: Hepatitis C virus ; measure: IC50 ; target: RNA-dependent RNA polymerase ; value: >10 µM
Cc1cccc(CNC(=O)Nc2ccccc2-c2nc(C(=O)O)c(O)c(=O)[nH]2)c1 ; agent: Hepatitis C virus ; measure: IC50 ; target: HCV polymerase ; value: <100 µM

Repeating the first 4 entries:

smiles | strain | agent | tested at | read by | measure | target | value
CC[C@@H](C=O)NC(=O)[C@@H]1C[C@@H](OCc2ccccc2)CN1C(=O)[C@@H](NC(=O)c1cccc2ccccc12)C(C)C |  | Hepatitis C virus |  |  | Ki | NS3 protease | 1–100 µM
CC[C@H](NC(=O)[C@@H](NC(=O)[C@@H](NC(=O)[C@H](CC(C)C)NC(=O)[C@@H](CCC(=O)O)NC(=O)[C@H](CC(=O)O)NC(C)=O)[C@@H](C)CC)C1CCCCC1)C(O)/C=C/CCCC(C)C |  | Hepatitis C virus | 10 µM |  | inhibition | HCV NS3 protease | 64%
CC[C@@H](C=O)NC(=O)[C@@H]1C[C@@H](OC(=O)Nc2ccccc2C(C)C)CN1C(=O)[C@@H](NC(=O)[C@@H](NC(=O)c1cnccn1)C(C)C)C(C)C |  | Hepatitis C virus |  |  | Ki | NS3 protease | 1–100 µM
C=CC1CC1(NC(=O)[C@@H]1C[C@@H](OC(=O)Nc2cc(C)ccc2F)CN1C(=O)[C@@H](NC(=O)OC(C)(C)C)C(C)(C)C)C(=O)O | BMS/H77C/J416S | Hepatitis C virus |  |  | IC50 | NS3/NS4A protease | >10 µM